A mixed list of measured activities; the numbers were collected in NIAID ChemDB.

Common to all: whole-cell or culture tests; agent: HIV-1; cells: MT-4; measure: fold resistance

Blank or dashed fields: not listed here. Lines come from different laboratories, so protocols vary. Fold resistance has wild type as its base.

| SMILES | strain or isolate | mutations | method | result |
|---|---|---|---|---|
| CCC(C)[C@@H](C(=O)N[C@@H](Cc1ccccc1)[C@H](O)CN(CC(C)C)S(=O)(=O)c1ccc(/C=N/O)cc1)N1CCN(Cc2cccc(C)n2)C1=O | A17 (LPV-resistant) | PR-L10F V32I M46I I47V Q68E I84V | cytopathic effect / MTT | 3.5 |
| Cc1ccccc1S(=O)(=O)c1c(C(=O)NCCO)[nH]c2ccc(Cl)cc12 |  | RT-Y181C | cytopathic effect / MTT | 38.7 |
| O=c1cc(Cc2ccc3ccccc3c2)nc(SC2CCCC2)[nH]1 | Nev^R(RT-Y181C) | RT-Y181C | cytopathic effect / MTT | >58.8 |
| CCc1c(Cc2cc(C)cc(C)c2)n(COC/C=C/c2ccccc2)c(=O)[nH]c1=O | NNRTI-resistant (RT Y181C) N119 | RT-Y181C | cytopathic effect / MTT | 1333 |
| Cc1ncn(Nc2ccccc2)c1-c1ccccc1 | SO561945 (RT K103N Y181C) | RT-K103N Y181C | cytopathic effect / MTT | <2.49 |
| Cc1nc2sccn2c1C(=O)N[C@@H](Cc1ccccc1)[C@H](O)CN(CC(C)C)S(=O)(=O)c1ccc2nc(N)oc2c1 | LAI | PR-L010F M046I M071V I084V | cytopathic effect / MTT | 14 |
| CCOc1c(OCC2CCC2)c2cc(F)ccc2[nH]c1=O | Nevirapine-resistant (RT Y181C) | RT-Y181C |  | 2.13 |
| NC(=O)c1[nH]c2ccc(Cl)cc2c1S(=O)(=O)c1ccccc1 |  | RT-Y181C | cytopathic effect / MTT | 15 |
| Cc1cccc(Nn2cnc(C)c2-c2ccccc2)c1 | SO561945 (RT K103N Y181C) | RT-K103N Y181C | cytopathic effect / MTT | 0.767 |
| Cc1ccc(C2CC2)c(-c2cc(F)c3c(c2C)CCCO3)c1[C@H](OC1CC1)C(=O)O | NL4-3 | INSTI-resistant (IN-G140S) | luminescence | 1 |
| CC(C)Cc1c(OCC2CCC2)c2cnccc2[nH]c1=O | Nevirapine-resistant (RT Y181C) | RT-Y181C |  | 4.71 |
| CCC(C)[C@@H](C(=O)N[C@@H](Cc1ccccc1)[C@H](O)CN(CC1CCCC1)S(=O)(=O)c1ccc(/C=N/O)cc1)N1CCN(Cc2cccnc2)C1=O | A17 (LPV-resistant) | PR-L10F V32I M46I I47V Q68E I84V | cytopathic effect / MTT | 0.5 |
| Cc1c(C(=O)N[C@@H](Cc2ccccc2)[C@H](O)CN(CC(C)C)S(=O)(=O)c2ccc3nc(N)oc3c2)ccc(N)c1O | LAI | PR-L010F M046I M071V I084V | cytopathic effect / MTT | 0.98 |
| Cc1ccc(S(=O)(=O)c2c(C(N)=O)[nH]c3ccc(Cl)cc23)c(C)c1 | A17 | RT-K103N Y181C | cytopathic effect / MTT | 2500 |
| CCC(C)[C@@H](C(=O)N[C@@H](Cc1ccccc1)[C@H](O)CN(CC(C)C)S(=O)(=O)c1ccc(/C=N/O)cc1)N1CCN(Cc2ccccn2)C1=O | A17 (LPV-resistant) | PR-L10F V32I M46I I47V Q68E I84V | cytopathic effect / MTT | 2.4 |
| Cc1cc(C)cc(S(=O)(=O)c2c(C(=O)/C=C/C(N)=O)[nH]c3ccc(Cl)cc23)c1 |  | RT-Y181C | cytopathic effect / MTT | 10 |
| Cc1ccc(S(=O)(=O)c2c(C(=O)NNCCO)[nH]c3ccc(Cl)cc23)cc1 |  | RT-K103N Y181C | cytopathic effect / MTT | 500 |
| CC(C)c1c(SCC2CCC2)c2cc(F)ccc2[nH]c1=O | Nevirapine-resistant (RT Y181C) | RT-Y181C |  | 3.09 |
| Nc1nc(=O)n([C@H]2C=C[C@@H](CO)O2)cc1F | XM-T69SSS | RT-T69SSS L210W T215Y | p24 | 5.8 |
| Cc1c(O)cccc1C(=O)N[C@@H](Cc1ccccc1)[C@H](O)CN(CC(C)C)S(=O)(=O)c1ccc2nc(N)sc2c1 | F | PR-L10F M46I M71V I84V | cytopathic effect / MTT | 1380 |
| CCc1[nH]c(=S)n(Nc2cccc(Cl)c2)c1-c1ccccc1 | SO561945 (RT K103N Y181C) | RT-K103N Y181C | cytopathic effect / MTT | <1 |
| Cc1cc(C)cc(Sc2c(C(=O)NNCCO)[nH]c3ccc(Cl)cc23)c1 |  | RT-Y181C | cytopathic effect / MTT | 33.3 |
| CC(C)CN(C[C@@H](O)[C@H](Cc1ccccc1)NC(=O)OC1COC2OCCNC12)S(=O)(=O)c1ccc2nc(N)oc2c1 | LAI | PR-L010F M046I M071V I084V | cytopathic effect / MTT | 0.63 |
| CCCc1c(Cc2cc(C)cc(C)c2)n(COC2C=CCCC2)c(=O)[nH]c1=O | NNRTI-resistant (RT Y181C) N119 | RT-Y181C | cytopathic effect / MTT | >3333 |
| Cc1cc(C)cc(S(=O)(=O)c2c(C(N)=O)[nH]c3c(Cl)cc(Cl)cc23)c1 |  | RT-K103N Y181C | cytopathic effect / MTT | >62.5 |
| O=C(NCCO)c1[nH]c2ccc(Cl)cc2c1S(=O)(=O)c1ccccc1 |  | RT-K103N Y181C | cytopathic effect / MTT | 4200 |
| CCC(C)[C@@H](C(=O)N[C@@H](Cc1ccccc1)[C@H](O)CN(CC(C)C)S(=O)(=O)c1ccc(/C=N/O)cc1)N1CCN(Cc2cccc(C(C)C)n2)C1=O | A17 (LPV-resistant) | PR-L10F V32I M46I I47V Q68E I84V | cytopathic effect / MTT | 1.6 |
| Cc1ncn(Nc2cccc(Cl)c2)c1-c1cccc(C#N)c1 | SO561945 (RT K103N Y181C) | RT-K103N Y181C | cytopathic effect / MTT | 2.53 |
| CSCSc1nc(Cc2c(F)cccc2F)c(C)c(=O)[nH]1 | IIIB | RT-Y181C | cytopathic effect / MTT | 200 |
| CC(C)CN(C[C@@H](O)[C@H](Cc1ccccc1)NC(=O)OCc1cnco1)S(=O)(=O)c1ccc2nc(N)oc2c1 | LAI | PR-L010F M046I M071V I084V | cytopathic effect / MTT | 13 |
| CCCc1c(SC2CCCC2)c2cc(F)ccc2[nH]c1=O | Nevirapine-resistant (RT Y181C) | RT-Y181C |  | 5.84 |
| COc1cc2c(cc1Cc1cccc(Cl)c1F)c(=O)c(C(=O)O)cn2[C@H](CO)C(C)C | NL4-3 | A128T | luminescence | 1 |
| CSCSc1nc(Cc2c(F)cccc2F)cc(=O)[nH]1 | IIIB | RT-K103N Y181C | cytopathic effect / MTT | >125 |
| Cc1[nH]c(=S)n(Nc2cccc(F)c2)c1-c1ccccc1 | SO561945 (RT K103N Y181C) | RT-K103N Y181C | cytopathic effect / MTT | ≤2.35 |
| CCC(C)[C@@H](C(=O)N[C@@H](Cc1ccccc1)[C@H](O)CN(CC1CCCC1)S(=O)(=O)c1ccc(/C=N/O)cc1)N1CCN(Cc2cccnc2C)C1=O | A17 (LPV-resistant) | PR-L10F V32I M46I I47V Q68E I84V | cytopathic effect / MTT | 1 |
| Cc1cccc(S(=O)(=O)c2c(C(=O)NCCO)[nH]c3ccc(Cl)cc23)c1 |  | RT-K103N Y181C | cytopathic effect / MTT | 366 |
| CNc1nc2ccc(S(=O)(=O)N(CC(C)C)C[C@@H](O)[C@H](Cc3ccccc3)NC(=O)c3cccc(N)c3C)cc2o1 | LAI | PR-L010F M046I M071V I084V | cytopathic effect / MTT | 40 |
| CCCc1c(SCC2CCC2)c2cc(Cl)ccc2[nH]c1=O | Nevirapine-resistant (RT Y181C) | RT-Y181C |  | 2.97 |
| Cc1cc(C)cc(Nn2c(-c3ccccc3)c(C)[nH]c2=S)c1 | SO561945 (RT K103N Y181C) | RT-K103N Y181C | cytopathic effect / MTT | <223 |
| CC(C)CN(C[C@@H](O)[C@H](Cc1ccccc1)NC(=O)O[C@H]1CO[C@H]2OCC[C@H]21)S(=O)(=O)c1ccc2c(c1)/C(=C/c1ccc(N(C)C)cc1)C(=O)N2 | F | PR-L10F M46I M71V I84V | cytopathic effect / MTT | 3.5 |
| O=C(NNCCO)c1[nH]c2ccc(Cl)cc2c1S(=O)(=O)c1ccccc1 |  | RT-Y181C | cytopathic effect / MTT | 120 |
| Cc1ccccc1S(=O)(=O)c1c(C(N)=O)[nH]c2ccc(Cl)cc12 | N119 nevirapine-resistant (RT Y181C) | RT-Y181C | cytopathic effect / MTT | 160 |
| CCCc1c(Cc2ccccc2)n(COC/C=C/c2ccccc2)c(=O)[nH]c1=O | NNRTI-resistant (RT K103N Y181C) A17 | RT-K103N Y181C | cytopathic effect / MTT | >10000 |
| CCC(C)[C@@H](C(=O)N[C@@H](Cc1ccccc1)[C@H](O)CN(CC(C)C)S(=O)(=O)c1ccc(/C=N/O)cc1)N1CCN(Cc2cccnc2C)C1=O | A17 (LPV-resistant) | PR-L10F V32I M46I I47V Q68E I84V | cytopathic effect / MTT | 9.5 |
| CC(C)CN(C[C@@H](O)[C@H](Cc1ccccc1)NC(=O)O[C@H]1CO[C@H]2OCC[C@H]21)S(=O)(=O)c1ccc2nc(N)oc2c1 | LAI | PR-L010F M046I M071V I084V | cytopathic effect / MTT | 0.51 |
| Cc1cc(C)cc(Sc2c(C(=O)NCCO)[nH]c3ccc(Cl)cc23)c1 |  | RT-K103N Y181C | cytopathic effect / MTT | 100 |
| Cc1[nH]c(=S)n(Nc2cccc(Cl)c2)c1-c1cccc(C#N)c1 | SO561945 (RT K103N Y181C) | RT-K103N Y181C | cytopathic effect / MTT | <2.37 |
| N#Cc1cc(Cl)cc(Oc2c(Br)ccc(CC(=O)Nc3ccc(S(N)(=O)=O)cc3Cl)c2F)c1 |  | L100I/K103N |  | 1 |
| CCCc1c(Cc2cc(C)cc(C)c2)n(COC/C(C)=C/c2ccccc2)c(=O)[nH]c1=O | NNRTI-resistant (RT Y181C) N119 | RT-Y181C | cytopathic effect / MTT | 700 |
| Cc1cc(C)cc(S(=O)(=O)c2c(C(=O)NCCO)[nH]c3ccc(Cl)cc23)c1 |  | RT-Y181C | cytopathic effect / MTT | 11 |
| CC1(C)Oc2ccc3ccc(=O)oc3c2[C@@H](OC(=O)C23CCC(C)(C(=O)O2)C3(C)C)[C@H]1OC(=O)C12CCC(C)(C(=O)O1)C2(C)C | PRMDR | PR-M46I L63P V82T I84V | p24 | 1 |
| CCOCn1c(Cc2ccccc2)c(C(C)C)c(=O)[nH]c1=O | NNRTI-resistant (RT K103N Y181C) A17 | RT-K103N Y181C | cytopathic effect / MTT | >5000 |

Again, the opening 7 rows:

SMILES	strain or isolate	mutations	method	result
CCC(C)[C@@H](C(=O)N[C@@H](Cc1ccccc1)[C@H](O)CN(CC(C)C)S(=O)(=O)c1ccc(/C=N/O)cc1)N1CCN(Cc2cccc(C)n2)C1=O	A17 (LPV-resistant)	PR-L10F V32I M46I I47V Q68E I84V	cytopathic effect / MTT	3.5
Cc1ccccc1S(=O)(=O)c1c(C(=O)NCCO)[nH]c2ccc(Cl)cc12		RT-Y181C	cytopathic effect / MTT	38.7
O=c1cc(Cc2ccc3ccccc3c2)nc(SC2CCCC2)[nH]1	Nev^R(RT-Y181C)	RT-Y181C	cytopathic effect / MTT	>58.8
CCc1c(Cc2cc(C)cc(C)c2)n(COC/C=C/c2ccccc2)c(=O)[nH]c1=O	NNRTI-resistant (RT Y181C) N119	RT-Y181C	cytopathic effect / MTT	1333
Cc1ncn(Nc2ccccc2)c1-c1ccccc1	SO561945 (RT K103N Y181C)	RT-K103N Y181C	cytopathic effect / MTT	<2.49
Cc1nc2sccn2c1C(=O)N[C@@H](Cc1ccccc1)[C@H](O)CN(CC(C)C)S(=O)(=O)c1ccc2nc(N)oc2c1	LAI	PR-L010F M046I M071V I084V	cytopathic effect / MTT	14
CCOc1c(OCC2CCC2)c2cc(F)ccc2[nH]c1=O	Nevirapine-resistant (RT Y181C)	RT-Y181C		2.13